Measured values from several laboratories, pooled; numbers as filed in NIAID ChemDB.

All rows: whole-cell or culture tests; species: Herpes simplex virus 1

An empty or dashed field is not shown. ECn is the concentration giving n% inhibition of infection, replication or growth. Conditions beyond the fields shown may differ between rows. a–b is a range or a potency band.

structure	strain	measure	read by	cell line	value
Cc1c(NC(=O)CCNC(=O)OC(C)(C)C)ccc2nc(N(C)CC(=O)N(C)CCc3ccccn3)oc(=O)c12		EC90	plaque count	VERO	>20 µM
CCCCCCCCCCCCCCCCCC(=O)OCC(CO[C@@H]1O[C@H](CO)[C@@H](O)[C@H](O)[C@H]1O)OC(=O)CCCCCCCCCCC	KOS	EC50	plaque count	VERO	>50 µg/mL
COC(=O)[C@]1(C)CCC[C@]2(C)c3cc4cc[nH]c4cc3CCC12		EC50	plaque count	E6SM	>4 µg/mL
Cc1c(NC(=O)c2ccco2)ccc2nc(NC(C)(C)C(=O)N(C)CCc3ccccn3)oc(=O)c12		EC90	plaque count	VERO	>12.5 µM
CCCCCCCC/C=C\CCCCCCCC(=O)OC(COC(=O)CCCCCCCCCCCCCCCCCCCCC)CO[C@@H]1O[C@H](CO)[C@@H](O)[C@H](O)[C@H]1O	KOS	EC50	plaque count	VERO	>50 µg/mL
C[C@]1(Cn2cnc3c(=O)[nH]c(N)nc32)[C@H](COCP(=O)(O)O)C1(F)F	HF	EC50		VERO	>100 µM
O=c1[nH]c(=O)n([C@H]2C[C@H](O)[C@@H](CO)O2)cc1I	KOS	EC50	cytopathic effect	Primary rabbit kidney cells	0.1 µg/mL
COC(=O)[C@]1(C)CCC[C@]2(C)c3cc(Br)c4[nH]ccc4c3CCC12		EC50	plaque count	E6SM	>4 µg/mL
Cn1cc(C(=O)NCc2ccc(Cl)cc2)c(=O)c2cc(CN3CCOCC3)ccc21	11893 (ACV-resistant)	EC50	plaque count	HFF	5.9 µM
CC/C=C/C/C=C/C/C=C/CCCCCCCC(=O)OCC(CO[C@@H]1O[C@H](CO)[C@H](O)[C@H](O)[C@H]1O)OC(=O)CCCCCCC/C=C\C/C=C\CCCCC	KOS	EC50	plaque count	VERO	<50 µg/mL
Nc1nc(=S)n([C@@H]2O[C@H](CO)[C@@H](O)[C@@H]2O)cc1I	KOS	EC50	plaque count	MRC-5	0.65 µM
CSc1nsc(-c2ccc(OCc3ccccc3)cc2)c1C#N		EC50	plaque count	VERO	>16.92 µg/mL
Nc1nc2c(ncn2CCCC(CO)CO)c(=O)[nH]1	SC16	EC50	plaque count	VERO	1.9 µM
Nc1nc(=O)n([C@H]2C=C(F)[C@@H](CO)O2)cc1F	KOS	EC50	cytopathic effect	VERO	20 µM
O=c1[nH]c(=O)n([C@@H]2O[C@H](CO)[C@@H](O)[C@@H]2F)cc1F	2931	EC50	plaque count	VERO	<0.1 µg/mL
CCCCCCCC/C=C\CCCCCCCC(=O)OC(COC(=O)CCCCCCCCCCC)CO[C@@H]1O[C@H](CO)[C@@H](O)[C@H](O)[C@H]1O	KOS	EC50	plaque count	VERO	>50 µg/mL
Cc1c(NC(=O)OC(C)(C)C)ccc2nc(N(CCc3ccccc3)C(=O)N(C)CCc3cccnc3)oc(=O)c12		EC90	plaque count	VERO	5.1 µM
CC/C=C/C/C=C/C/C=C/CCCCCCCC(=O)OCC(CO[C@@H]1O[C@H](CO)[C@@H](O)[C@H](O)[C@H]1O)OC(=O)CCCCCCC/C=C\C/C=C\CCCCC	KOS	EC50	plaque count	VERO	<50 µg/mL
Nc1ncnc2c1ncn2[C@H]1C[C@]12C[C@@H]2CO		EC50	plaque count	VERO	>50 µM
CSc1nsc(-c2ccccc2)c1C#N		EC50	plaque count	VERO	>4.64 µg/mL
Nc1nc(=O)n([C@@H]2OC3COP(=O)([O-])OC3[C@H]2O)cc1F	KOS	EC50	cytopathic effect	VERO	220 µM
CCCCCCCCCCCCCCCC(=O)OC[C@H]1OC(OC(=O)NS(=O)(=O)OC[C@H]2O[C@@H](n3ccc(=O)[nH]c3=O)[C@@H]3OC(C)(C)O[C@@H]32)[C@H](OC(=O)CCCCCCCCCCCCCCC)[C@@H](OC(=O)CCCCCCCCCCCCCCC)[C@@H]1OC(=O)CCCCCCCCCCCCCCC		EC50	cytopathic effect	HeLa	30 µM
O=C(O[C@@H]1Cc2c(O)cc(O)cc2O[C@@H]1c1cc(O)c(O)c(O)c1)c1cc(O)c(O)c(O)c1	KOS	EC50	plaque count	VERO	38.6 µM
Nc1ccn([C@@H]2O[C@H](CO)[C@@H](O)[C@H]2O)c(=S)n1	KOS	EC50	plaque count	MRC-5	>386 µM
CCCCCCCCCCCCCCCCCCCCCC(=O)OCC(CO[C@@H]1O[C@H](CO)[C@@H](O)[C@H](O)[C@H]1O)OC(=O)CCCCCCCCCCCCCCCCCCCCC	KOS	EC50	plaque count	VERO	>50 µg/mL
Cc1cn([C@H]2C[C@H](O)[C@@H](CO)O2)c(=S)[nH]c1=O	KOS	EC50	plaque count	MRC-5	6.2 µM
C[C@@H]1CC[C@H]2C(C)(C)[C@H](O)CC[C@]2(C)C12Cc1c(O)cc3c(c1O2)COC3=O		EC50		VERO	>20 µg/mL
Nc1[nH]c(=O)ncc1F	KOS	EC50	cytopathic effect	VERO	>5000 µM
Nc1nc(=O)n([C@@H]2O[C@H](CO)[C@@H](O)[C@@H]2F)cc1Cl	2931	EC50	plaque count	VERO	<10 µg/mL
Nc1ncnc2c1ncn2[C@H]1C[C@@]12C[C@@H]2CO		EC50	ELISA	BSC-1	>100 µM
Nc1ncnc2c1ncn2C[C@@H](CO)OCP(=O)(O)O	F	EC50	cytopathic effect	PRK	1–3 µg/mL
O=c1[nH]c(=O)n([C@H]2C[C@H](O)[C@@H](CO)O2)cc1I	2931	EC50	plaque count	VERO	<10 µg/mL
COC(=O)[C@]1(C)CCC[C@]2(C)c3ccc4nc(-c5ccccc5)c(-c5ccccc5)nc4c3CCC12		EC50	plaque count	E6SM	>4 µg/mL
N#Cc1c(SSc2nsc(-c3ccccc3)c2C#N)nsc1-c1ccccc1		EC50	plaque count	VERO	>8.69 µg/mL
O=c1[nH]c(=S)n([C@H]2C[C@H](O)[C@@H](CO)O2)cc1Cl	TK-	EC50	plaque count	MRC-5	>360 µM
Nc1ncnc2c1ncn2[C@H]1C[C@@]12C[C@H]2CO		EC50	plaque count	VERO	>50 µM
CCNc1cn([C@H]2C[C@H](O)[C@@H](CO)O2)c(=O)[nH]c1=O		EC50		GMK	50 µg/mL
O=c1[nH]c(=O)n([C@H]2C[C@H](O)[C@@H](CO)O2)cc1/C=C/Br	H129	EC50	plaque count	VERO	0.15 µg/mL
COC(=O)[C@]1(C)CCC[C@]2(C)c3ccc4[nH]c(C)nc4c3CCC12		EC50	plaque count	E6SM	>4 µg/mL
Nc1nc(=S)n([C@@H]2O[C@H](CO)[C@@H](O)[C@@H]2O)cc1Cl	KOS	EC50	plaque count	MRC-5	>341 µM
Nc1ncnc2c1ncn2C[C@H](O)CO	McIntyre	EC50	cytopathic effect	PRK	>400 µg/mL
CC(=O)OC(C(=O)Nc1ccc2nc(NC(C)(C)C(=O)N(C)CCc3ccccn3)oc(=O)c2c1C)c1ccccc1		EC90	plaque count	VERO	>12.5 µM
Cc1cn([C@H]2C[C@H](O)[C@]3(CO)C[C@H]23)c(=O)[nH]c1=O	F (TK+)	EC50	plaque count	HFF	0.07 µg/mL
Nc1nc2c(ncn2[C@H]2C[C@]23C[C@H]3CO)c(=O)[nH]1		EC50	plaque count	VERO	>50 µM
Nc1nc(=S)n([C@@H]2O[C@H](CO)[C@@H](O)[C@@H]2O)cc1Br	KOS	EC50	plaque count	MRC-5	27.2 µM
Nc1nc2c(ncn2COCCO)c(=O)[nH]1	F	EC50	cytopathic effect	HFF	0.5 µg/mL
CC(=O)OC[C@H]1OC(OC(=O)NS(=O)(=O)OC[C@H]2O[C@@H](n3ccc(=O)[nH]c3=O)[C@@H]3OC(C)(C)O[C@@H]32)[C@H](OC(C)=O)[C@@H](OC(C)=O)[C@@H]1OC(C)=O		EC50	cytopathic effect	HeLa	90 µM
N#Cc1c(-c2ccccc2)s[nH]c1=S		EC50	plaque count	VERO	>13 µg/mL
CN(C)c1cn([C@H]2C[C@H](O)[C@@H](CO)O2)c(=O)[nH]c1=O		EC50		GMK	150–300 µg/mL
Nc1ncnc2c1ncn2C[C@@H](CO)OCP(=O)(O)O	Schooler	EC50	plaque count	WI-38	3 µM
C[C@]1(Cn2cnc3c(=O)[nH]c(N)nc32)[C@@H](COCP(=O)(O)O)C1(F)F	HF	EC50		VERO	>100 µM
CCOS(=O)c1nsc(-c2ccc(OCc3ccccc3)cc2)c1C#N		EC50	plaque count	VERO	>3.96 µg/mL
Cc1c(NC(=O)OC(C)(C)C)ccc2nc(N(CCc3ccccc3)C(=O)N(C)CCc3ccncc3)oc(=O)c12		EC90	plaque count	VERO	<3.2 µM
Nc1nc2c(ncn2CC(CO)CCO)c(=O)[nH]1	7935-72	EC50	plaque count	VERO	0.15 µM
Cc1c(NC(=O)OC(C)(C)C)ccc2nc(N(C)CCC(=O)NCCc3ccncc3)oc(=O)c12		EC90	plaque count	VERO	>12.5 µM
Nc1ncnc2c1ncn2[C@H]1C[C@]12C[C@H]2CO		EC50	plaque count	VERO	>50 µM
O=c1[nH]c(=O)n([C@H]2C[C@H](O)[C@@H](COP(=O)(O)O)O2)cc1CCc1ccccc1	KOS	EC50	cytopathic effect	PRK	15 µg/mL
O=C(NCc1ccc(Cl)cc1)c1cn2c3c(cc(CN4CCOCC4)cc3c1=O)OC(c1cccnc1)C2	L6183347 ACV resistant	EC50	plaque count	HFF	14 µM
Cc1cn([C@@H]2O[C@H](CO)[C@@H](O)[C@@H]2O)c(=O)[nH]c1=O	2931	EC50	plaque count	VERO	<1 µg/mL